Measured values from several laboratories, pooled; numbers as filed in NIAID ChemDB.

Shared fields: whole-cell or culture tests; organism: Candida tropicalis; measure: MIC80

An empty or dashed field is not shown.

compound	strain	method	result
O=C(/C=C/c1ccccc1)OC1CCN(CC(O)(Cn2cncn2)c2ccc(F)cc2F)CC1		broth dilution	0.033 µM
O=C1C=CC(=O)N1CCN1CCOCC1	KKP 334	broth dilution	64 µg/mL
O=C(O/N=C(\CCn1ccnc1)c1ccccc1)c1ccc(F)cc1		agar diffusion	0.3708 µg/mL
C[C@@H](c1ncncc1F)[C@](O)(Cn1cncn1)c1ccc(F)cc1F	559-6.9		0.03 µg/mL
O=C1S/C(=C\c2ccc(Cl)cc2Cl)C(=O)N1CC(O)(Cn1nccn1)c1ccc(F)cc1F			0.0078 µg/mL
CCN1C(=O)C=CC1=O	KKP 334	broth dilution	1 µg/mL
CCCCN(Cc1cn(Cc2ccccc2[N+](=O)[O-])nn1)CC(O)(Cn1cncn1)c1ccc(F)cc1F			2 µg/mL
O=C1CSC(=O)N1CC(O)(Cn1nccn1)c1ccc(F)cc1F			0.71 µg/mL
CN(CC(=O)Nc1ccccc1)CC(O)(Cn1cncn1)c1ccc(F)cc1F			16 µg/mL
CCCCCCCCCCC(=O)OC1CCN(CC(O)(Cn2cncn2)c2ccc(F)cc2F)CC1		broth dilution	0.508 µM
COc1ccc(/C(CCn2ccnc2)=N\O)cc1		agar diffusion	0.2549 µg/mL
O=C1S/C(=C\c2ccccc2)C(=O)N1CC(O)(Cn1nccn1)c1ccc(F)cc1F			0.56 µg/mL
O=C1C=CC(=O)N1c1ccc([N+](=O)[O-])cc1	KKP 334	broth dilution	1 µg/mL
CC(C)(C)C(=O)OC1CCN(CC(O)(Cn2cncn2)c2ccc(F)cc2F)CC1		broth dilution	0.148 µM
COc1ccc(N2C(=O)C=CC2=O)cc1	KKP 334	broth dilution	2 µg/mL
Cc1cc(C)cc(NC(=O)CN(C)CC(O)(Cn2cncn2)c2ccc(F)cc2F)c1			4 µg/mL
O/N=C(/CCn1ccnc1)c1ccccc1		agar diffusion	0.5807 µg/mL
COc1cccc(NC(=O)CN(C)CC(O)(Cn2cncn2)c2ccc(F)cc2F)c1			16 µg/mL
CCCCN(Cc1cn(Cc2cccc(C#N)c2)nn1)CC(O)(Cn1cncn1)c1ccc(F)cc1F			>64 µg/mL
Cc1ccc(NC(=O)CN(C)CC(O)(Cn2cncn2)c2ccc(F)cc2F)c(C)c1			64 µg/mL
COc1ccc(/C=C/C(=O)OC2CCN(CC(O)(Cn3cncn3)c3ccc(F)cc3F)CC2)cc1OC		broth dilution	0.118 µM
O=C1S/C(=C\c2ccccn2)C(=O)N1CC(O)(Cn1nccn1)c1ccc(F)cc1F			9.02 µg/mL
O=C(/C=C/c1cccc(F)c1)OC1CCN(CC(O)(Cn2cncn2)c2ccc(F)cc2F)CC1		broth dilution	0.129 µM
O=C1S/C(=C\c2ccc(Br)cc2)C(=O)N1CC(O)(Cn1nccn1)c1ccc(F)cc1F			1.92 µg/mL
O=C1C=CC(=O)N1C1CCCCC1	KKP 334	broth dilution	1 µg/mL
CCCC(=O)OC1CCN(CC(O)(Cn2cncn2)c2ccc(F)cc2F)CC1		broth dilution	0.153 µM
CCCCN(Cc1cn(Cc2ccc(C)cc2)nn1)CC(O)(Cn1cncn1)c1ccc(F)cc1F			<0.125 µg/mL
Cc1ccc(-c2c3c(N)c4c(nc3nc3c2c(C)nn3-c2ccccc2)CCCC4)cc1	CCC 131	broth dilution / absorbance	15.6 µg/mL
CCCCN(Cc1cn(Cc2cccc([N+](=O)[O-])c2)nn1)CC(O)(Cn1cncn1)c1ccc(F)cc1F			8 µg/mL
Cc1cc(C)c(N2C(=O)C=CC2=O)c(C)c1	KKP 334	broth dilution	0.5 µg/mL
CCCCN(Cc1cn(Cc2ccccc2Br)nn1)CC(O)(Cn1cncn1)c1ccc(F)cc1F			0.5 µg/mL
O=C(/C=C/c1ccccc1[N+](=O)[O-])OC1CCN(CC(O)(Cn2cncn2)c2ccc(F)cc2F)CC1		broth dilution	0.122 µM
O=C(O/N=C(\CCn1ccnc1)c1ccccc1)c1ccccc1		agar diffusion	0.7838 µg/mL
Cc1ccc(-c2c3c(N)c4c(nc3nc3c2c(C)nn3-c2ccccc2)CCC4)cc1	CCC 131	broth dilution / absorbance	125 µg/mL

Repeating the final 5 entries:

compound	strain	method	result
Cc1cc(C)c(N2C(=O)C=CC2=O)c(C)c1	KKP 334	broth dilution	0.5 µg/mL
CCCCN(Cc1cn(Cc2ccccc2Br)nn1)CC(O)(Cn1cncn1)c1ccc(F)cc1F			0.5 µg/mL
O=C(/C=C/c1ccccc1[N+](=O)[O-])OC1CCN(CC(O)(Cn2cncn2)c2ccc(F)cc2F)CC1		broth dilution	0.122 µM
O=C(O/N=C(\CCn1ccnc1)c1ccccc1)c1ccccc1		agar diffusion	0.7838 µg/mL
Cc1ccc(-c2c3c(N)c4c(nc3nc3c2c(C)nn3-c2ccccc2)CCC4)cc1	CCC 131	broth dilution / absorbance	125 µg/mL

Rows are shuffled and stem from different studies. A number after MIC or MFC names an inhibition level or a share of isolates.